In the assay the target is Mycobacterium tuberculosis dUTPase lacking the mycobacteria-specific loop A133-S137 (MtDUT^Δloop) (Mycobacterium tuberculosis, 133-AGLAS-137 (A133-S137) deleted). The assay can be described thus: BLI. In general terms: BLI is a label-free optical method that tracks binding on a fibre tip over time.

B1: Stl-Avi, biotinylated full-length Stl for the BLI sensor (natural protein)
chain: MEGAGQMAELPTHYGTIIKTLRKYMKLTQSKLSERTGFSQNTISNHENGNRNIGVNEIEIYGKGLGIPSYILHRISDEFKEKGYSPTLNDFGKFDKMYSYVNKAYYNDGDIYYSSYDLYDETIKLLELLKESKINVNDIDYDYVLKLYKQILSTDTEKSIINYETLANTRKSSDKKREVTIEEIGEFHEKYLKLLFTNLETHNDRKKALAEIEKLKEESIYLGEKLRLVPNHHYDAIKGKPMYKLYLYEYPDRLEHQKKIILEKDTN
modifications: biotin on the Avi-tag
As a reminder, the Kd is the constant that tells how readily two partners part at equilibrium. One may read the koff as the first-order rate constant of dissociation. A lower koff goes with a long-lived complex. The term kon denotes the rate constant with which the complex forms. A lower kon goes with slower complex formation. For B1, the Kd was 0.033 ± 0.001 nM, the koff is 5.99e-05 s⁻¹ and the kon came out at 1.816e+06 ± 0.01 M⁻¹ s⁻¹.
